Pooled drug test results. Numbers come from NIAID ChemDB, via PubChem.

All rows: growth or infection tests; agent: Hepatitis C virus; measure: inhibition

Lines come from different laboratories, so protocols vary. Inhibition is in % at the dose shown (toxicity tests: loss of growth or viability). a–b is a range or a potency band. An empty or dashed field is not shown.

structure | strain | mutations | cell line | read by | tested at | value
Cn1c(=O)c2c(ncn2C)n(C)c1=O | J6/JFH |  | Huh7.5 | luciferase / replicon | 500 µM | 40.6%
COC(=O)C1=CO[C@@H](O)[C@H]2[C@@H]1[C@H](O)C[C@]2(C)O |  |  |  | entry | 20 µg/mL | 61.2%
COc1cc(C2OCC3C(=O)OCC32)cc(O)c1OC |  |  | Ava5 | PCR | 15 µM | 80%
O=C(Nc1cccc(-c2cccc(F)c2)c1)C1CCN(Cc2cccc3cccnc23)CC1 | JFH-1 |  | Huh7 | PCR | 5 µM | ≥40%
C=CCNC(=O)C(=O)C(CCC)NC(=O)[C@@H]1[C@@H]2[C@H](CN1C(=O)[C@@H](NC(=O)N[C@H](CN1Cc3ccccc3S1(=O)=O)C(C)(C)C)C(C)(C)C)C2(C)C |  |  |  |  | 0.15 µM | 90%
COc1ccc(CC2C(=O)NC(=O)N(c3ccc4c(c3)OCO4)C2=O)cc1O | 1b |  | Huh7/Rep-Feo1b | luciferase / replicon | 50 µM | 25.3%
COc1cc(/C=C/C(=O)CC(=O)/C=C/c2ccc(O)c(OC)c2)ccc1O |  |  | Huh7/Rep-Feo cells | luciferase / reporter gene | 5 µM | 0–20%
COC(=O)/C=C1\S/C(=N/N=C/c2c(F)cccc2Cl)NC1=O | 1b Con1 (replicon) |  | Huh 5-2 | luciferase / luminescence | 20.9 µM | 77%
Cc1n[nH]c(=O)c2cc3c(C)n[nH]c(=O)c3cc12 | GT2a |  | Huh7.5 | luciferase / reporter gene | 50 µM | 55%
COC(=O)/C=C1\S/C(=N/N=C/c2ccccc2OCc2ccccc2)NC1=O | 1b Con1 (replicon) |  | Huh 5-2 | luciferase / luminescence | 12.7 µM | 82.8%
CCn1ncc(CN2CCC(C(=O)Nc3cccc(-c4cccc(F)c4)c3)CC2)c1C | JFH-1 |  | Huh7 | PCR | 5 µM | ≥40%
COC(=O)C1=CO[C@@H](OC2O[C@H](CO)[C@@H](O)[C@H](O)[C@H]2O)[C@@H]2[C@H](C)[C@@H](O)C[C@H]12 |  |  |  | entry | 20 µg/mL | 0%
O=C1N/C(=N\c2nnc(-c3ccc(Cl)cc3)s2)S/C1=C\c1c(F)cccc1Cl |  |  | Huh7.5-FGR-JC1-Rluc2A | MTS | 100 µM | 0%
COC(=O)c1c(C)cc(OC(=O)c2c(C)cc(O)c(C(=O)O)c2O)c(C)c1O | FL-J6/JFH-5'C19Rluc2AUbi |  | Huh7.5.1 | luciferase | 100 µM | 0%
O=C(N[C@@H](C(=O)N1CCC[C@H]1c1ncc(-c2ccc(-c3ccc(-c4cnc([C@@H]5CCCN5C(=O)[C@H](NC(=O)C5CC5)c5ccccc5)s4)cc3)cc2)s1)c1ccccc1)C1CC1 | genotype 2a JFH1 |  | Huh7.5 | luciferase | 0.0004647 µM | 90%
CC1(C)CC[C@]2(C(=O)O)CC[C@]3(C)C(=CC[C@@H]4[C@@]5(C)CC[C@H](O)C(C)(C)[C@@H]5CC[C@]43C)[C@@H]2C1 |  |  | Huh7 | luciferase / entry | 5 µM | 26.4%
Oc1cc(O)c2c(c1)O[C@H](c1cc(O)c(O)c(O)c1)[C@H](O)C2 | 1a |  |  | luciferase | 50 µM | 80%
Cc1cc(C)c2c(=O)[nH]c(SCC(=O)c3ccc(O)c(O)c3)nc2n1 | 1b |  | Huh7/Rep-Feo1b | luciferase / replicon | 50 µM | 80.9%
C[C@@H]1[C@H]2[C@H](O[C@@H]3O[C@H](CO)[C@@H](O)[C@H](O)[C@H]3O)OC=C(C(=O)O)[C@H]2C[C@@H]1O |  |  |  | entry | 20 µg/mL | 0%
O=C(O)CCn1ncc2c(=O)[nH]cnc21 | GT2a |  | Huh7.5 | luciferase / reporter gene | 50 µM | 85%
Cc1c(C(=O)Nc2ccccc2)nn(-c2ccccc2)c1-n1cccc1 | Jc1 |  | Huh5-2 replicon cells | PCR | 7 µM | 82%
COc1cc(C(c2cc(OC)c3c(c2)OCO3)[C@@H]2COC(=O)[C@@H]2C)cc2c1OCO2 | Subgenomic replicon JFH-1 |  | Huh7.5 | luciferase | 50 µM | 68%
COc1nc(N)nc2c1ncn2[C@@H]1O[C@H](COP(=O)(N[C@@H](C)C(=O)OC(C)C)Oc2ccccc2)[C@@H](O)[C@@]1(C)F | H77 |  | CEM |  | 0.0086 µM | 90%
CCN(CC)Cc1ccc(C(=O)N(CCc2ccccc2OC)C2CCNC2)cc1 | JFH-1 |  | Huh7.5 |  | 9.5 µM | 90%
CN(C(=O)c1ccncc1)c1cc(C(F)(F)F)ccc1N1CCCCC1 | 2a |  | Huh7/Rep-Feo-2a | luciferase / replicon | 30 µM | 20–50%
O=C(CCc1c[nH]c2ccccc12)OCC(=O)c1ccc2ccccc2c1 | 1b |  | Huh7/Rep-Feo1b | luciferase / replicon | 50 µM | 51.1%
CN(C)CCCn1cnc2c(=O)oc3ccccc3c21 | GT2a |  | Huh7.5 | luciferase / reporter gene | 50 µM | 19%
COC(=O)/C=C1\S/C(=N/N=C/c2cccc(OC)c2)NC1=O | 1b Con1 (replicon) |  | Huh 5-2 | luciferase / luminescence | 34 µM | 76.1%
O=C(Nc1ccccc1)c1cc(-n2cccc2)n(-c2ccccc2)n1 | Jc1 |  | Huh5-2 replicon cells | PCR | 10 µM | 70%
CCCC[C@H](NC(=O)[C@@H]1[C@@H]2[C@H](CN1C(=O)[C@@H](NC(=O)NC1(CS(=O)(=O)C(C)(C)C)CCCCC1)C(C)(C)C)C2(C)C)C(=O)C(=O)NC1CC1 |  |  |  | replicon | 0.04 µM | 90%
O=c1[nH]cnc2c1sc(=S)n2Cc1ccccc1 | GT2a |  | Huh7.5 | luciferase / reporter gene | 50 µM | 35%
COc1cc([C@H]2O[C@@H](c3cc(OC)c4c(c3)OCO4)[C@@H](C)[C@@H]2C)cc2c1OCO2 | Subgenomic replicon S52 | T1056A T1429I S2204I | Huh7.5 | luciferase | 25 µM | 80%
CCCC(NC(=O)[C@@H]1C2CCC(=O)C2CN1C(=O)[C@@H](NC(=O)[C@@H](NC(=O)c1cnccn1)C(C)C)C(C)C)C(=O)C(=O)Nc1ccccc1 |  |  |  |  | 25 µM | 0%
COC(=O)N[C@H](C(=O)N1CCC[C@H]1c1ncc(-c2ccc(-c3ccc(-c4cnc([C@@H]5CCCN5C(=O)[C@@H](NC(=O)OC)C(C)C)[nH]4)cc3)cc2)[nH]1)C(C)C | 1b |  |  | replicon | 20 pM | 90%
O=C1C[C@@H](c2ccc(O)cc2)Oc2cc(O)cc(O)c21 |  |  |  |  | 200 µM | 79%
C[C@@H]1OC(Nc2cccc(NC3O[C@H](C)C(O)C(O)C3O)c2)C(O)C(O)C1O | 1b |  | Huh7/Rep-Feo1b | luciferase / replicon | 50 µM | 16.9%
COC(=O)C1=CO[C@@H](O)[C@@H]2C(CO)=CC[C@H]12 |  |  |  | entry | 20 µg/mL | 17.1%
CCOc1ccc2nc(NC(=O)Nc3cccc(OC)c3)sc2c1 |  |  | Huh7.5 | PCR | 9.8 µM | 90%
C=Cc1cn([C@@H]2C=C(CO)[C@@H](O)[C@H]2O)c2ncnc(N)c12 |  |  |  | replicon | 20 µM | 19.2%
O=C(Nc1ccc(Cl)cc1)c1cc(-n2cccc2)n(-c2ccccc2)n1 | Jc1 |  | Huh5-2 replicon cells | PCR | 6 µM | 68%
COc1cccc(-c2ccccc2NC(=O)C2CCN(Cc3cccc4cccnc34)CC2)c1 | JFH-1 |  | Huh7 | PCR | 5 µM | ≥70%
CCOC(=O)Cn1nnnc1CN(Cc1ccc(F)cc1)Cc1cc2cc(CC)ccc2[nH]c1=O | 1b |  | Huh7/Rep-Feo1b | luciferase / replicon | 50 µM | 91.2%

2 of the rows above, restated:

COC(=O)/C=C1\S/C(=N/N=C/c2c(F)cccc2Cl)NC1=O ; strain: 1b Con1 (replicon) ; cell line: Huh 5-2 ; read by: luciferase / luminescence ; tested at: 20.9 µM ; value: 77%
O=C(CCc1c[nH]c2ccccc12)OCC(=O)c1ccc2ccccc2c1 ; strain: 1b ; cell line: Huh7/Rep-Feo1b ; read by: luciferase / replicon ; tested at: 50 µM ; value: 51.1%